Drawing on ChEMBL document CHEMBL1144291, “Synthesis of 9-(2-beta-C-methyl-beta-d-ribofuranosyl)-6-substituted purine derivatives as inhibitors of HCV RNA replication” (Bioorg Med Chem Lett, 2005), this text covers EC50 and CC50 for three compounds.

Test [1] deals with Hepatitis C virus. As to the kind of experiment: Inhibition of hepatitis C virus RNA replication in a subgenomic replicon cell line.
In test [2] the test system is Hepatitis C virus. As to the kind of experiment: Cytotoxicity concentration to inhibit hepatitis C virus RNA replication in a subgenomic replicon cell line.

SMILES strings stand for the structures.

Take `C[C@]1(O)C(n2cnc3c(NP(N)(=O)O)ncnc32)O[C@H](CO)[C@H]1O` (stereo partly specified): the midpoint of the response in test [1], the EC50, lay at 6 µM. Moreover, the CC50 in test [2] turned out to be 300 µM.

`CCOP(=O)(Nc1ncnc2c1ncn2C1O[C@H](CO)[C@@H](O)[C@@]1(C)O)OCC` (stereo partly specified) had an EC50 in test [1] of 25 µM. Further, in test [2], the midpoint of cytotoxicity, the CC50, lay at 300 µM.

Take `COP(=O)(O)Nc1ncnc2c1ncn2C1O[C@H](CO)[C@@H](O)[C@@]1(C)O` (stereo partly specified): the response in test [1] was half-maximal at 33 µM (EC50). Also, in test [2], the cytotoxic concentration (CC50) worked out at 300 µM.
